Compound potency records, mixed from different reports. Data source: NIAID ChemDB in PubChem.

All rows: whole-cell or culture tests; species: Cryptococcus neoformans

Blank or dashed fields: not listed here.

{"smiles": "NC(=NC1CCCC1)c1ccc(-c2ccc(-c3ccc(C(N)=NC4CCCC4)cc3)o2)cc1", "strain": "9 strains", "read-out": "Geometric mean MFC", "result": "4.59 µg/mL"}
{"smiles": "CC[C@@H]([C@H](C)O)n1ncn(-c2ccc(N3CCN(c4ccc(OC[C@@H]5CO[C@@](Cn6cncn6)(c6ccc(F)cc6F)C5)cc4)CC3)cc2)c1=O", "strain": "9 strains", "read-out": "Geometric mean MIC", "result": "0.25 µg/mL"}
{"smiles": "O=C1N[C@H](Cc2ccccc2)C(=O)N2CCC[C@H]12", "read by": "broth dilution", "read-out": "MIC100", "result": "16 µg/mL"}
{"smiles": "C[C@@H](n1cnc2cc(Cl)ccc2c1=O)[C@](O)(Cn1cncn1)c1ccc(F)cc1F", "strain": "Isolate 123.96", "read-out": "MFC", "result": "20 µg/mL"}
{"smiles": "CC(C)C(CCC(C)C1CCC2C3CC=C4C[C@@H](O)CCC4(C)C3CCC12C)NS(=O)(=O)O", "strain": "A.34144", "read-out": "MIC90", "result": "0.39 µg/mL"}
{"smiles": "Cc1nc(NCCCCNc2ccnc3cc(Cl)ccc23)nc(-c2ccccc2)c1C(=O)OC(C)C", "strain": "LMM 820", "read-out": "MIC99", "result": "8 µg/mL"}
{"smiles": "CCNC(=S)N/N=C(\\N)c1ccccn1", "strain": "LMM 820", "read-out": "MIC100", "result": ">416.7 µM"}
{"smiles": "Cn1nc(Cc2ccc(Cl)cc2)c2ccccc2c1=O", "strain": "Clinical isolate (IM 000319)", "read by": "broth dilution", "read-out": "MFC", "result": "250 µg/mL"}
{"smiles": "O=C1N[C@@H](Cc2c[nH]c3ccccc23)C(=O)N2CCC[C@@H]12", "read by": "agar diffusion / agar", "read-out": "zone", "dose": "2 µg/mL", "result": "32 mm"}
{"smiles": "CC(C)C(N)CCC(C)C1CCC2C3CC=C4C[C@@H](O)CCC4(C)C3CCC12C", "strain": "A.34144", "read-out": "MIC90", "result": "≤0.05 µg/mL"}
{"smiles": "CCOC(=O)c1c(C)nc(NCCCCNc2ccnc3cc(Cl)ccc23)nc1-c1ccc(F)cc1", "strain": "F-10", "read-out": "MIC99", "result": "4 µg/mL"}
{"smiles": "CCNC(CCC(C)C1CC[C@@]2(C)C3=C(CCC12C)C1(C)CC[C@H](O)C(C)(C)C1CC3)C(C)C", "strain": "A.34144", "read-out": "MIC90", "result": "25 µg/mL"}
{"smiles": "CCOC(=O)c1cnc(NCCCCNc2ccnc3cc(Cl)ccc23)nc1C", "strain": "27JF", "read-out": "MIC99", "result": "16 µg/mL"}
{"smiles": "Nc1[nH]c(=O)ncc1F", "strain": "37 strains", "read-out": "MIC90", "result": "≥16 µg/mL"}
{"smiles": "C[C@@H](n1ncn(-c2ccc(OCC(F)(F)C(F)F)cc2)c1=O)[C@](O)(Cn1cncn1)c1ccc(F)cc1F", "strain": "DUMC 114.96", "read-out": "MFC", "result": "2 µg/mL"}
{"smiles": "CCN1CCC(O)(/C=C/c2ccc(Cl)cc2)C(C(=O)/C=C/c2ccc(Cl)cc2)C1", "strain": "2 strains", "read-out": "Mean MIC", "result": "1.17 µM"}
{"smiles": "CC1(C)O[C@H]2[C@H](O)[C@@H](N=[N+]=[N-])C=C(c3ccc(C=O)cc3)[C@H]2O1", "strain": "ATCC 32264", "read by": "broth dilution / turbidity", "read-out": "inhibition", "dose": "125 µg/mL", "result": "11.9%"}
{"smiles": "CCN1CCC(O)(/C=C/c2ccc(OC)cc2)C(C(=O)/C=C/c2ccc(OC)cc2)C1", "strain": "2 strains", "read-out": "Mean MIC", "result": "100 µM"}
{"smiles": "C=C1CO[C@H]2[C@@H](C)OC(OC[C@@]34C[C@H]5[C@H](C)CC[C@@H]5[C@@]5(C=O)C[C@@H]3C=C(C(C)C)[C@@]45C(=O)O)C[C@@H]12", "strain": "22 strains (serotype C)", "read-out": "Mean MIC", "result": "0.587 µg/mL"}
{"smiles": "CCC(C)n1ncn(-c2ccc(N3CCN(c4ccc(OC[C@H]5CO[C@](Cn6cncn6)(c6ccc(Cl)cc6Cl)O5)cc4)CC3)cc2)c1=O", "strain": "42 isolates (HIV+)", "read-out": "MIC90", "result": "0.25 µg/mL"}
{"smiles": "CCOC(=O)c1c(C)nc(NCCCCNc2ccnc3cc(Cl)ccc23)nc1-c1ccccc1", "strain": "VM-MCMMPI", "read-out": "MIC99", "result": "8 µg/mL"}
{"smiles": "NCCCC[C@H](NC(=O)[C@H](CCCN=C(N)N)NC(=O)[C@H](CCCN=C(N)N)NC(=O)[C@H](CCCCN)NC(=O)[C@H](CCCCN)NC(=O)[C@@H](N)CCCCN)C(=O)N[C@@H](CCCN=C(N)N)C(=O)O", "strain": "ATCC 32264", "read-out": "inhibition", "dose": "100 µM", "result": "14%"}
{"smiles": "CCC(C)CC(C)CCCCCCCCC(=O)N[C@H]1C[C@@H](O)[C@H](NCCN)NC(=O)[C@@H]2[C@@H](O)CCN2C(=O)[C@H]([C@H](O)CCN)NC(=O)[C@H]([C@H](O)[C@@H](O)c2ccc(O)cc2)NC(=O)[C@@H]2C[C@@H](O)CN2C(=O)[C@H]([C@@H](C)O)NC1=O", "strain": "B 34336", "read by": "broth dilution", "read-out": "MIC", "result": "8 µg/mL"}
{"smiles": "CCC(C)n1ncn(-c2ccc(N3CCN(c4ccc(OC[C@H]5CO[C@](Cn6cncn6)(c6ccc(Cl)cc6Cl)O5)cc4)CC3)cc2)c1=O", "strain": "9 strains", "read-out": "Geometric mean MIC", "result": "0.46 µg/mL"}
{"smiles": "OC(Cn1cncn1)(Cn1cncn1)c1ccc(F)cc1F", "strain": "Var. neoformans (isolate 45645)", "read by": "colony count", "read-out": "inhibition", "dose": "1 µg/mL", "result": "90%"}
{"smiles": "CCOC(=O)c1c(C)nc(NCCCNc2ccnc3cc(Cl)ccc23)nc1-c1ccccc1", "strain": "ATCC 28957", "read-out": "MIC99", "result": "1.4 µg/mL"}
{"smiles": "C[C@@H](c1nc(-c2ccc(C#N)cc2)cs1)[C@](O)(Cn1cnnc1)c1ccc(F)cc1F", "strain": "A28201", "read-out": "MFC99", "result": "4 µg/mL"}
{"smiles": "CCC(C)CC(C)CCCCCCCCC(=O)N[C@H]1C[C@@H](O)[C@H](NCCN)NC(=O)[C@@H]2[C@@H](O)CCN2C(=O)[C@H]([C@H](O)CCN)NC(=O)[C@H]([C@H](O)[C@@H](O)c2ccc(O)cc2)NC(=O)[C@@H]2C[C@@H](O)CN2C(=O)[C@H]([C@@H](C)O)NC1=O", "strain": "12 strains", "read-out": "Geometric mean MIC", "result": "32 µg/mL"}
{"smiles": "CC(C)C(CCC(C)C1CC[C@@]2(C)C3=C(CCC12C)C1(C)CC[C@H](O)C(C)(C)C1CC3)N=[N+]=[N-]", "strain": "A.34144", "read-out": "MIC90", "result": "25 µg/mL"}
{"smiles": "CN[C@H]1CC[C@@H](c2ccc(Cl)c(Cl)c2)c2ccccc21", "strain": "Bt31", "read by": "broth dilution", "read-out": "MFC", "result": "8 µg/mL"}
{"smiles": "C[C@H]([C@](O)(Cn1cncn1)c1ccc(F)cc1F)S(C)(=O)=O", "strain": "B4500 (AZOLE-S)", "read-out": "EC50", "result": "0.18 µM"}

A second listing of 3 rows from above:

| smiles | strain | read by | read-out | dose | result |
|---|---|---|---|---|---|
| O=C1N[C@@H](Cc2c[nH]c3ccccc23)C(=O)N2CCC[C@@H]12 |  | agar diffusion / agar | zone | 2 µg/mL | 32 mm |
| CCN1CCC(O)(/C=C/c2ccc(Cl)cc2)C(C(=O)/C=C/c2ccc(Cl)cc2)C1 | 2 strains |  | Mean MIC |  | 1.17 µM |
| CC(C)C(CCC(C)C1CCC2C3CC=C4C[C@@H](O)CCC4(C)C3CCC12C)NS(=O)(=O)O | A.34144 |  | MIC90 |  | 0.39 µg/mL |

MIC50, MIC90 and the like: level of inhibition, or share of isolates inhibited. Neighbouring rows are from separate reports. ECn is the concentration giving n% inhibition of infection, replication or growth. Zones are inhibition diameters on agar. Inhibition is in % at the dose shown (toxicity tests: loss of growth or viability).